Assay results taken from patent publication US9988341B2, “Bacterial topoisomerase inhibitors and use thereof” (THE FLORIDA INTERNATIONAL UNIVERSITY BOARD OF TRUSTEES, priority 2016, dated 2018).
pIC50: −log10 of the molar value. Read-outs that look alike come from different tables or passages of the source.

Chains of the proteins cited; added tags and fusions are not shown.
UniProt P06612, whole entry: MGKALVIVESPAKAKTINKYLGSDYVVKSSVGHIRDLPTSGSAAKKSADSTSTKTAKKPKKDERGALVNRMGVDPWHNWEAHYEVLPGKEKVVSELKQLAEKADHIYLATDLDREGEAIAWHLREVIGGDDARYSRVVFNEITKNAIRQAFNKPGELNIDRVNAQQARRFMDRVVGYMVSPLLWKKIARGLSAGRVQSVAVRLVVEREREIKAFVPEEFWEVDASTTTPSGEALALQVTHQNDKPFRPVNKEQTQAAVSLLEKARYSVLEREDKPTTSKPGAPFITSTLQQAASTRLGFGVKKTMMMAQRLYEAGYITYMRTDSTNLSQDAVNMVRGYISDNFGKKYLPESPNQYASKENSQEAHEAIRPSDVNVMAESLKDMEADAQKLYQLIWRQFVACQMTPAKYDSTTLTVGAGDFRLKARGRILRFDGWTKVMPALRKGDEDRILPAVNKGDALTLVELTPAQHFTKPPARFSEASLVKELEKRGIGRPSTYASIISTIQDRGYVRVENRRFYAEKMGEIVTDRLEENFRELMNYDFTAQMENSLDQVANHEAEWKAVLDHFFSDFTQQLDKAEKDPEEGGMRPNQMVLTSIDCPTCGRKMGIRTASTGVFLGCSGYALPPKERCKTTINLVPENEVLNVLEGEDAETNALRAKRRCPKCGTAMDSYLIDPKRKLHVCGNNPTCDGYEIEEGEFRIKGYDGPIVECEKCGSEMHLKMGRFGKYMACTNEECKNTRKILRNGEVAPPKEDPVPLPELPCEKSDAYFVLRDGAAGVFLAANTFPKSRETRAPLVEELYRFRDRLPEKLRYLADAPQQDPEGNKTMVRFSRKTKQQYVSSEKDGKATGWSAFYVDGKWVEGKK
UniProt P9WG49, whole entry: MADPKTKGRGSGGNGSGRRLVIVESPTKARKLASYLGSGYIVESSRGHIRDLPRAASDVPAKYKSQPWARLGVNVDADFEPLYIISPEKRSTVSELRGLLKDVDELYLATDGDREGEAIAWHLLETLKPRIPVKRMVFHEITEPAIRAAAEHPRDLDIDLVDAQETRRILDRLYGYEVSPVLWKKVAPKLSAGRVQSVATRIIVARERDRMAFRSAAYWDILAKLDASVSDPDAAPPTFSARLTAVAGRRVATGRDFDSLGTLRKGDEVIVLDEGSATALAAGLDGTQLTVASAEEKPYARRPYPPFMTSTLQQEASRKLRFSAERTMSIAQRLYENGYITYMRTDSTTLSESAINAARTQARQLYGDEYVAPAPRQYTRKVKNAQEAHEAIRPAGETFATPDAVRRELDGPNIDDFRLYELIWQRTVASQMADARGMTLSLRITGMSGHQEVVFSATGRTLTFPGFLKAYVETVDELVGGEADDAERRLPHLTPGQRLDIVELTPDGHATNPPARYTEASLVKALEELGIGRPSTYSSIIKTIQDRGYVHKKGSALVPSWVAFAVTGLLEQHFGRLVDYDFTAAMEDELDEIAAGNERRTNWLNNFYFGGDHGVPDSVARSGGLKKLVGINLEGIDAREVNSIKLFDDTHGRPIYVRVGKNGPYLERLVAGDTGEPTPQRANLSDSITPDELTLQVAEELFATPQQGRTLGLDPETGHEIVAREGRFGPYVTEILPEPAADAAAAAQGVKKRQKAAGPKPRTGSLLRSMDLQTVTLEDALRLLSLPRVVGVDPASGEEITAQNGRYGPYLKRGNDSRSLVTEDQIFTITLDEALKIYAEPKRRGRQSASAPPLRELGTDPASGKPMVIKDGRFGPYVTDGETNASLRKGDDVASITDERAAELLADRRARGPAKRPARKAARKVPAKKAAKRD

What was measured:
E. coli topoisomerase I = E. coli topoisomerase I (Escherichia coli, UniProt P06612); test: Bacterial topoisomerase I relaxation activity inhibition assay (EcTopI)
[1] = biological target: M. tuberculosis topoisomerase I (Mycobacterium tuberculosis, UniProt P9WG49); settings: read-out: MtbTopI IC50; Table 3
Mtb-lux = test: Percent Mtb-lux killing
[2] = read-out: EcTopI relaxation inhibition (IC50), Table 1, individual compounds tested as crude material

NC[C@@H](CC1CCCCC1)NC[C@H](Cc1ccc(F)cc1)NCCc1cc(C(F)(F)F)cc(C(F)(F)F)c1
pIC50 (E. coli topoisomerase I; [2]): 4.40

CNCCCC[C@H](CN)NC[C@H](CCCNC(=N)N)NCc1cccc2ccccc12
pIC50 [1]: 5.60 | Percent Mtb-lux killing 5 μg/mL (Mtb-lux): 35.8%

CNCCCC[C@@H](CN[C@H](CN)CCCN)NCCc1cccc2ccccc12
pIC50 (E. coli topoisomerase I; read-out: EcTopI IC50, Table 3): 5.72 | pIC50 (E. coli topoisomerase I; [2]): 5.72 | pIC50 [1]: 6.20 | Percent Mtb-lux killing 5 μg/mL (Mtb-lux): 5.4%

NC[C@H](CC1CCCCC1)NC[C@H](Cc1ccc(F)cc1)NCCc1cc(C(F)(F)F)cc(C(F)(F)F)c1
pIC50 (E. coli topoisomerase I; [2]): 4.40

NC[C@@H](CC1CCCCC1)NC[C@H](Cc1ccc(F)cc1)NCCCCC1CCCCC1
pIC50 (E. coli topoisomerase I; [2]): 4.40

CCCC[C@H](CN[C@@H](CN)CC1CCCCC1)NCCc1cc(C(F)(F)F)cc(C(F)(F)F)c1
pIC50 (E. coli topoisomerase I; [2]): 4.40

CC(C)(C)C1CCC(CN[C@H](CN[C@H](CN)Cc2ccc3ccccc3c2)Cc2ccc(F)cc2)CC1 (some centres unmarked)
pIC50 (E. coli topoisomerase I; [2]): 4.40

N=C(N)NCCC[C@@H](CN[C@H](CN)CCCN)NCCc1cccc(Br)c1
pIC50 (E. coli topoisomerase I; [2]): 4.40

CCC[C@H](CN[C@H](CN)CCCCNC)NCCc1cccc2ccccc12
pIC50 [1]: 5.30 | Percent Mtb-lux killing 5 μg/mL (Mtb-lux): 58.6%

CNCCC[C@@H](CN[C@H](CN)Cc1ccc2ccccc2c1)NCCCCC1CCCCC1
pIC50 (E. coli topoisomerase I; [2]): 4.40

CNCCCC[C@@H](CN)NC[C@H](CCCCNC)NCCc1ccc(O)c(O)c1
pIC50 (E. coli topoisomerase I; [2]): 3.92

NC[C@H](Cc1ccc2ccccc2c1)NC[C@H](Cc1ccc(F)cc1)NCCCCC1CCCCC1
pIC50 (E. coli topoisomerase I; [2]): 4.40

CNCCCC[C@H](CN)NC[C@H](CCCCNC)NCCc1ccc(O)c(O)c1
pIC50 (E. coli topoisomerase I; [2]): 4.10

CNCCC[C@H](CN[C@@H](CN)CC1CCCCC1)NCCCCC1CCCCC1
pIC50 (E. coli topoisomerase I; [2]): 4.10

N=C(N)NCCC[C@@H](CN[C@H](CN)CCCN)NCCc1cccc2ccccc12
pIC50 (E. coli topoisomerase I; read-out: EcTopI IC50, Table 3): 5.90 | pIC50 (E. coli topoisomerase I; [2]): 5.92 | pIC50 [1]: 5.90 | Percent Mtb-lux killing 5 μg/mL (Mtb-lux): 22.7%

CNCCC[C@@H](CN[C@H](CN)Cc1ccc2ccccc2c1)NCC1CCC(C(C)(C)C)CC1 (some centres unmarked)
pIC50 (E. coli topoisomerase I; [2]): 4.40

CNCCCC[C@H](CN)NC[C@H](CCCCNC)NCCc1cccc2ccccc12
pIC50 (E. coli topoisomerase I; read-out: EcTopI IC50, Table 3): 5.90 | pIC50 (E. coli topoisomerase I; [2]): 5.92 | pIC50 [1]: 5.72 | Percent Mtb-lux killing 5 μg/mL (Mtb-lux): 12.6%

CCC[C@H](CN[C@H](CN)CCCN)NCCc1cccc2ccccc12
pIC50 (E. coli topoisomerase I; read-out: EcTopI IC50, Table 3): 5.12 | pIC50 (E. coli topoisomerase I; [2]): 5.12 | pIC50 [1]: 5.00 | Percent Mtb-lux killing 5 μg/mL (Mtb-lux): 42.0%

CNCCC[C@H](CN[C@H](CN)Cc1ccc2ccccc2c1)NCCCCC1CCCCC1
pIC50 (E. coli topoisomerase I; [2]): 4.40

CNCCCC[C@@H](CN)NC[C@H](CCCNC(=N)N)NCCc1cccc2ccccc12
pIC50 (E. coli topoisomerase I; read-out: EcTopI IC50, Table 3): 5.60 | pIC50 (E. coli topoisomerase I; [2]): 5.60 | pIC50 [1]: 5.90 | Percent Mtb-lux killing 5 μg/mL (Mtb-lux): 30.7%

NC[C@H](Cc1ccc2ccccc2c1)NC[C@H](Cc1ccc(F)cc1)NCCc1cc(C(F)(F)F)cc(C(F)(F)F)c1
pIC50 (E. coli topoisomerase I; [2]): 4.40

CCCC[C@H](CN[C@H](CN)CC1CCCCC1)NCCc1cc(C(F)(F)F)cc(C(F)(F)F)c1
pIC50 (E. coli topoisomerase I; [2]): 4.40

CNCCC[C@@H](CN[C@H](CN)Cc1ccc2ccccc2c1)NCCc1ccc(Cl)c(Cl)c1
pIC50 (E. coli topoisomerase I; [2]): 4.52

NC[C@H](CC1CCCCC1)NC[C@H](Cc1ccc(F)cc1)NCCCCC1CCCCC1
pIC50 (E. coli topoisomerase I; [2]): 4.40

CNCCC[C@H](CN[C@H](CN)Cc1ccc2ccccc2c1)NCCc1cc(C(F)(F)F)cc(C(F)(F)F)c1
pIC50 (E. coli topoisomerase I; [2]): 4.40

CCCC[C@H](CN[C@H](CN)Cc1ccc2ccccc2c1)NCCCCC1CCCCC1
pIC50 (E. coli topoisomerase I; [2]): 4.40

CNCCC[C@@H](CN[C@H](CN)Cc1ccc2ccccc2c1)NCCc1cc(C(F)(F)F)cc(C(F)(F)F)c1
pIC50 (E. coli topoisomerase I; [2]): 4.40

CCC[C@H](CN[C@@H](CN)CCCCNC)NCc1cccc2ccccc12
pIC50 [1]: 5.30 | Percent Mtb-lux killing 5 μg/mL (Mtb-lux): 56.0%

CNCCCC[C@@H](CN)NC[C@H](CCCCNC)NCCc1cccc2ccccc12
pIC50 [1]: 5.60 | Percent Mtb-lux killing 5 μg/mL (Mtb-lux): 5.9%

CCCC[C@H](CN[C@H](CN)Cc1ccc2ccccc2c1)NCCc1cc(C(F)(F)F)cc(C(F)(F)F)c1
pIC50 (E. coli topoisomerase I; [2]): 4.40

CNCCC[C@H](CN[C@H](CN)Cc1ccc2ccccc2c1)NCC1CCC(C(C)(C)C)CC1 (some centres unmarked)
pIC50 (E. coli topoisomerase I; [2]): 4.40
